Measured values from several laboratories, pooled; numbers as filed in NIAID ChemDB.

Common to all: tests in culture

MIC50, MIC90 and the like: level of inhibition, or share of isolates inhibited. Neighbouring rows are from separate reports. Fold resistance has wild type as its base. An empty or dashed field is not shown. Percent inhibition refers to the dose given; in toxicity tests it is the harm to the cells. ECn is the concentration giving n% inhibition of infection, replication or growth.

SMILES,species,strain or isolate,changes,cell line,method,read-out,tested at,result
NC(=O)c1csc([C@@H]2O[C@H](COP(=O)(O)CP(=O)(O)OC[C@H]3O[C@@H](n4cnc5c(N)ncnc54)[C@H](O)[C@@H]3O)[C@@H](O)[C@H]2O)n1,West Nile virus,NEW YORK,,VERO,cytopathic effect / visual reading,EC50,,100 µg/mL
Nc1nc(N)c2ncn(CCOCP(=O)(O)O)c2n1,Epstein-Barr virus,,,,,MIC,,0.05 µg/mL
O=c1[nH]c(=O)n([C@@H]2O[C@H](CO)[C@@H](O)[C@H]2O)[nH]c1=S,West Nile virus,NEW YORK,,VERO,cytopathic effect / visual reading,EC50,,10 µg/mL
CC(C)(CO)C(=O)SCCOP(=O)(NCc1ccccc1)OC[C@H]1O[C@@H](n2cnc3c(=O)[nH]c(N)nc32)[C@](C)(O)[C@@H]1O,Hepatitis C virus,GT1a,L31F,Replicon cells,replicon,fold resistance,,1.06
C[C@H](Cc1ccc(O)c(O)c1)[C@@H](C)Cc1ccc(O)c(O)c1,Candida krusei,CCC 117-2000,,,broth dilution,MIC50,,250 µg/mL
O=c1c(O)c(-c2ccc(O)c(O)c2)oc2cc(O)cc(O)c12,Candida tropicalis,Clinical isolate 5,,,broth dilution,MIC50,,>128 µg/mL
Nc1nc(NC2CC2)c2ncn([C@H]3C=C[C@@H](CO)C3)c2n1,HIV-1,Recombinant,RT-M41L A62V S68N G112S V118I M184V,HeLa,luciferase,fold resistance,,0.7
CO[C@H]1/C=C/O[C@@]2(C)Oc3c(C)c(O)c4c(O)c(c5c(c4c3C2=O)NC2(CCN(CC(C)C)CC2)N=5)=NC(=O)/C(C)=C\C=C\[C@H](C)[C@H](O)[C@@H](C)[C@@H](O)[C@@H](C)[C@H](OC(C)=O)[C@@H]1C,Encephalitozoon cuniculi,,,MRC-5 fibroblasts,cytopathic effect,inhibition,1 µg/mL,0%
NC(=O)c1ncn([C@@H]2O[C@H](CO)[C@@H](O)[C@H]2O)n1,Measles virus,TN1994,,CV-1,neutral red,EC50,,10 µg/mL
Nc1ncnc2c1ncn2[C@@H]1C=C(CO)[C@@H](O)[C@H]1O,Tacaribe virus,,,,,MIC,,0.3 µg/mL
Nc1nccc2c1ncn2[C@@H]1C=C(CO)[C@@H](O)[C@H]1O,West Nile virus,NEW YORK,,VERO,cytopathic effect,EC50,,>2.6 µg/mL
CO[C@H]1[C@@H](OC(=O)/C=C/C=C/C=C/C=C/C(=O)O)CC[C@@]2(CO2)[C@@H]1[C@@]1(C)O[C@@H]1CC=C(C)C,Encephalitozoon intestinalis,,,RK-13,,inhibition,1 µg/mL,86.9%
NC(N)=NS(=O)(=O)c1ccc(N)cc1,Encephalitozoon cuniculi,,,MRC-5 fibroblasts,cytopathic effect,inhibition,50 µg/mL,0%
COC(=O)Nc1nc2ccc(Sc3ccccc3)cc2[nH]1,Cryptococcus neoformans,IU4,,,,EC50,,0.019 µg/mL
NC1=NCN([C@@H]2O[C@H](CO)[C@@H](O)[C@H]2O)C(=O)N1,West Nile virus,NEW YORK,,VERO,cytopathic effect / visual reading,EC50,,>90 µg/mL
CCOC(=O)Nc1cc2c(c(N)n1)N=C(c1ccc(OC)cc1)CO2,Encephalitozoon intestinalis,,,RK-13,,inhibition,0.1 µg/mL,80.9%
Nc1ccc(S(=O)(=O)Nc2ncccn2)cc1,Encephalitozoon cuniculi,,,MRC-5 fibroblasts,cytopathic effect,EC50,,>50 µg/mL
NC(=O)c1nc(F)c[nH]c1=O,Influenza B virus,Guangdong/5/94,,MDCK,plaque count,EC50,,0.053 µg/mL
Nc1ncnc2c1ncn2CCOCP(=O)(O)O,Varicella zoster virus,Oka penciclovir-resistant/A,,HEL,cytopathic effect,EC50,,131.8 µM
CC1COc2c(N3CCN(C)CC3)c(F)cc3c(=O)c(C(=O)O)cn1c23,Staphylococcus aureus,10 strains (oxacillin-resistant),,,,MIC50,,4 µg/mL
O=c1cc[nH]c(=S)[nH]1,West Nile virus,NEW YORK,,VERO,cytopathic effect,EC50,,100 µg/mL
Nc1nc2c(ncn2COCCO)c(=O)[nH]1,Mouse cytomegalovirus,HPMPC-resistant,,C1271,plaque count,EC50,,2.7 µM
C[C@H]1NCc2cc(-c3ccc4c(=O)c(C(=O)O)cn(C5CC5)c4c3OC(F)F)ccc21,Staphylococcus aureus,24 strains (ofloxacin-susceptible),,,,MIC90,,0.03 µg/mL
Nc1cc(OCCOCP(=O)(O)O)nc(N)n1,Cytomegalovirus,DAVIS,,,cytopathic effect,EC50,,>190 µM
COC(=O)Nc1nc2ccccc2[nH]1,Cryptococcus neoformans,IU4,,,,EC90,,3.6 µg/mL
CC(=O)OC[C@H]1O[C@@H](n2ncc(=O)[nH]c2=O)[C@H](OC(C)=O)[C@@H]1OC(C)=O,West Nile virus,Uganda,,VERO,cytopathic effect / visual reading,EC50,,0.6 µg/mL
COc1c(N2CCNC(C)C2)c(F)cc2c(=O)c(C(=O)O)cn(C3CC3)c12,Staphylococcus aureus,25 strains (ofloxacin-resistant),,,,MIC90,,16 µg/mL
C[C@H](Cn1cnc2c(N)ncnc21)OCP(=O)(O)O,Punta Toro virus,,,,cytopathic effect,EC50,,>525 µM
Nc1ncnc2c1ncn2CCOCP(=O)(O)O,Epstein-Barr virus,,,P3HR-1,,inhibition,0.01 µM,5%
CCOC(=O)Nc1cc(NC(C)/C(=N/O)c2cccc([N+](=O)[O-])c2)c([N+](=O)[O-])c(N)n1,Encephalitozoon intestinalis,,,RK-13,,inhibition,0.01 µg/mL,0%
CO[C@@H]1[C@@H](O[C@@H]2O[C@H](C)[C@@H](O[C@H]3C[C@@](C)(O)[C@@H](O)[C@H](C)O3)[C@H](N(C)C)[C@H]2O)[C@@H](CC=O)C[C@@H](C)[C@@H](O[C@H]2CC[C@H](N(C)C)[C@H](C)O2)/C=C/C=C/C[C@@H](C)OC(=O)C[C@H]1O,Toxoplasma gondii,,,,,inhibition,3 µg/mL,70%
COc1ccc(OC)c(Cc2cnc3nc(N)nc(N)c3c2C)c1,Encephalitozoon cuniculi,,,MRC-5 fibroblasts,cytopathic effect,EC50,,>10 µg/mL
COc1c(N2C[C@@H]3CCCN[C@@H]3C2)c(F)cc2c(=O)c(C(=O)O)cn(C3CC3)c12,Haemophilus influenzae,38 strains (ampicillin-susceptible),,,,MIC90,,0.03 µg/mL
CCO/N=C/c1ccc(OCCC2CCN(c3ccc(C)nn3)CC2)cc1,Rhinovirus,CH82 (ICAM-1 receptor group 56),,KB,neutral red,EC50,,0.002 µM
Nc1nc2c(ncn2COC(CO)CO)c(=O)[nH]1,Mouse cytomegalovirus,Foscarnet-resistant,,C1271,plaque count,EC50,,6.3 µM
O=C1C(=O)c2ccccc2C(O)=C1C1CCC(c2ccc(Cl)cc2)CC1,Encephalitozoon cuniculi,,,MRC-5 fibroblasts,cytopathic effect,inhibition,1 µg/mL,0%
O=C(O)P(=O)(O)O,Mouse cytomegalovirus,WILD TYPE,,C1271,plaque count,EC50,,90 µM
CCOC(=O)Nc1cc2[nH]c(=O)c(-c3ccccc3)nc2c(NC(c2ccccc2)c2ccccc2)n1,Encephalitozoon intestinalis,,,RK-13,,inhibition,0.1 µg/mL,75.8%
CN(C)c1ccc(O)c2c1C[C@H]1C[C@H]3[C@H](N(C)C)C(=O)C(C(N)=O)=C(O)[C@@]3(O)C(=O)C1=C2O,Encephalitozoon cuniculi,,,MRC-5 fibroblasts,cytopathic effect,EC50,,~50 µg/mL
Nc1ncnc2c1ncn2C[C@H](O)CO,Epstein-Barr virus,,,P3HR-1,,inhibition,0.01 µM,4%
C[C@@H]1CN(c2c(F)c(N)c3c(=O)c(C(=O)O)cn(C4CC4)c3c2F)C[C@H](C)N1,Staphylococcus aureus,25 strains (ofloxacin-resistant),,,,MIC50,,8 µg/mL
Cn1c2ccccc2c2c1cc(C#N)c(=O)n2-c1ccc([N+](=O)[O-])cc1,HIV-1,NRTI resistant,RT-M41L K70R T215F K219E,HeLa,luciferase,EC50,,0.038 µM
Nc1ncnc2c1ncn2CCOCP(=O)(O)O,Punta Toro virus,,,,cytopathic effect,EC50,,>185 µM
CCOC(=O)Nc1cc2[nH]c(-c3ccc(OC)cc3)nc2c(NC(c2ccccc2)c2ccccc2)n1,Encephalitozoon intestinalis,,,RK-13,,inhibition,0.01 µg/mL,10.8%
CN(C)c1ccc(O)c2c1C[C@H]1C[C@H]3[C@H](N(C)C)C(=O)C(C(N)=O)=C(O)[C@@]3(O)C(=O)C1=C2O,Staphylococcus aureus,24 strains (ofloxacin-susceptible),,,,MIC90,,8 µg/mL
COc1c(C)c2c(c(O)c1C/C=C(\C)CCC(=O)O)C(=O)OC2,West Nile virus,NEW YORK,,VERO,cytopathic effect,EC50,,1.4 µg/mL
O=c1[nH]cnc2c1ncn2[C@H]1CC[C@@H](CO)O1,HIV-1,Recombinant,RT-A62T V118I M184V,HeLa,luciferase,EC50,,5.01 µM
O=c1cnn([C@@H]2O[C@H](CO)[C@@H](O)[C@H]2O)c(=O)[nH]1,West Nile virus,NEW YORK,,MA-104,cytopathic effect / visual reading,EC50,,0.1 µg/mL
NC1CCN(c2nc3c(cc2F)c(=O)c(C(=O)O)cn3-c2ccc(F)cc2F)C1,Staphylococcus aureus,24 strains (ofloxacin-susceptible),,,,MIC90,,0.06 µg/mL
NC(=O)c1[nH]nc([C@@H]2O[C@H](CO)[C@@H](O)[C@H]2O)c1O,West Nile virus,NEW YORK,,MA-104,virus yield,EC50,,<0.3 µg/mL
Nc1nc2c(ncn2CC(CO)OCP(=O)(O)O)c(=O)[nH]1,Mouse cytomegalovirus,Ganciclovir-resistant,,C1271,plaque count,EC50,,2.6 µM
C[C@@H](O)[C@H]1C(=O)N2C(C(=O)O)=C(SCCN=CN)C[C@H]12,Staphylococcus aureus,25 strains (ofloxacin-resistant),,,,MIC90,,128 µg/mL
Nc1ncnc2c1ncn2CCOCP(=O)(O)O,Epstein-Barr virus,,,,,MIC,,0.7 µg/mL
C#Cc1c(C(N)=O)ncn1[C@@H]1O[C@H](CO)[C@@H](O)[C@H]1O,Respiratory syncytial virus,TYPE A/NS-100,,HeLa,plaque count,EC50,,0.13 µg/mL
N[C@@H]1CN(c2c(F)cc3c(=O)c(C(=O)O)cn([C@@H]4C[C@@H]4F)c3c2Cl)CC12CC2,Haemophilus influenzae,38 strains (ampicillin-susceptible),,,,MIC90,,≤0.004 µg/mL
CCOC(=O)Nc1cc2oc(=O)c(-c3ccccc3)nc2c(N)n1,Encephalitozoon intestinalis,,,RK-13,,inhibition,0.1 µg/mL,26.5%
CCCOc1ccc2nc(NC(=O)OC)[nH]c2c1,Cryptococcus neoformans,ATCC 14116,,,,EC50,,1.4 µg/mL
COc1cc2oc(=O)ccc2cc1CC(O)C(C)(C)O,Trichophyton mentagrophytes,,,,,MIC,,250 µg/mL
C[C@H]1COc2c(N3CCN(C)CC3)c(F)cc3c(=O)c(C(=O)O)cn1c23,Streptococcus pneumoniae,Clinical isolate SP30,,,,MIC,,1 µg/mL
O=C(Nc1ncc([N+](=O)[O-])s1)c1ccccc1O,Encephalitozoon intestinalis,,,RK-13,,inhibition,1 µg/mL,64%
Cc1ncc([N+](=O)[O-])n1CCO,Encephalitozoon cuniculi,,,MRC-5 fibroblasts,cytopathic effect,inhibition,2 µg/mL,0%

5 of the rows above, restated:

| SMILES | species | strain or isolate | changes | cell line | method | read-out | tested at | result |
|---|---|---|---|---|---|---|---|---|
| NC(=O)c1nc(F)c[nH]c1=O | Influenza B virus | Guangdong/5/94 |  | MDCK | plaque count | EC50 |  | 0.053 µg/mL |
| C#Cc1c(C(N)=O)ncn1[C@@H]1O[C@H](CO)[C@@H](O)[C@H]1O | Respiratory syncytial virus | TYPE A/NS-100 |  | HeLa | plaque count | EC50 |  | 0.13 µg/mL |
| Cc1ncc([N+](=O)[O-])n1CCO | Encephalitozoon cuniculi |  |  | MRC-5 fibroblasts | cytopathic effect | inhibition | 2 µg/mL | 0% |
| NC(=O)c1csc([C@@H]2O[C@H](COP(=O)(O)CP(=O)(O)OC[C@H]3O[C@@H](n4cnc5c(N)ncnc54)[C@H](O)[C@@H]3O)[C@@H](O)[C@H]2O)n1 | West Nile virus | NEW YORK |  | VERO | cytopathic effect / visual reading | EC50 |  | 100 µg/mL |
| O=c1cc[nH]c(=S)[nH]1 | West Nile virus | NEW YORK |  | VERO | cytopathic effect | EC50 |  | 100 µg/mL |